A mixed list of measured activities; the numbers were collected in NIAID ChemDB.

All rows: growth or infection tests; agent: Candida albicans

Two numbers with a dash give a range or band. ECn is the concentration giving n% inhibition of infection, replication or growth. MIC50, MIC90 and the like: level of inhibition, or share of isolates inhibited. Blank or dashed fields: not listed here. Rows are shuffled and stem from different studies.

compound | read-out | method | strain | result
CN(Cc1cccc2ccsc12)/N=C\c1ccc(Cl)cc1 | MIC | - | - | >64 µg/mL
COc1ccc([C@@H]2COc3c(ccc(O)c3OC)C2)c(O)c1 | MIC | - | - | 10 µg/mL
Nc1ccc2c(c1)nc(-c1ccc(F)cc1)n2C1CCCC1 | MIC | - | - | 25 µg/mL
O=C1CCCC2=C1C(c1ccc(Cl)cc1)n1c(s/c(=C\c3ccc(Cl)cc3)c1=O)=N2 | MIC | - | AUCC-1720 | 100 µg/mL
CCCSc1cc(C(N)=S)ccn1 | MIC | - | 3a | 100 µg/mL
COc1ccc(/C=N/NC(=O)c2nnn(-c3ccnc4c(C(F)(F)F)cccc34)c2C)cc1 | MIC | - | - | 6 µg/mL
CCCCOc1ccc(SCC#CI)cc1 | EC50 | - | CNCM 1180-79 | <78 µg/mL
O=c1[nH][nH]c2c1C(c1ccc(F)cc1)CC(Cc1ccc3ccccc3c1)=C2 | MIC | agar diffusion | - | 50 µg/mL
COc1cc(CC=C(C)C)c([C@H]2Oc3c(CC=C(C)C)c(OC)cc(O)c3C(=O)[C@@H]2O)c(CC=C(C)C)c1O | MIC | - | NIH B311 | >100 µg/mL
CCc1c(Cc2ccc(Cl)cc2)nc(SCCN2C(=O)c3ccccc3C2=O)[nH]c1=O | MIC | - | ATCC 10231 | 100 µg/mL
Cc1ccc(/C=N\N(C)Cc2cccc3ccccc23)cc1 | MIC | - | - | >64 µg/mL
CCCn1c(-c2ccccc2)nc2cc(NC(=S)Nc3ccc(Cl)cc3)ccc21 | MIC | - | - | 25 µg/mL
CCC(C)C(NC)C(=O)NC1C(=O)OC(C(C)C)C(=O)OC(CC(C)C)C(=O)NC(C(C)CC)C(=O)N(C)C(CC(C)C)C(=O)NC(C(C)O)C(=O)N(C)C(C(C)C)C(=O)NC(C)C(=O)N(C)C(CC(C)C)C(=O)OC1C | MIC | - | ATCC 90028 | 2.5 µg/mL
COc1cc(/C=N/NC(=O)c2nnn(-c3ccnc4c(C(F)(F)F)cccc34)c2C)c([N+](=O)[O-])cc1OC | MIC | - | - | 12.5 µg/mL
CCc1c(Cc2ccc(OC)c(OC)c2)nc(SCCN2CCCCC2)[nH]c1=O | MIC | - | ATCC 10231 | 50 µg/mL
NC(=S)c1ccnc(SC2CCCCC2)c1 | MIC | - | 176 | 100 µg/mL
Cc1c(C(=O)N/N=C/c2ccco2)nnn1-c1ccnc2c(C(F)(F)F)cccc12 | MIC | - | - | 12.5 µg/mL
CNC1CC(O)C(C)(c2ccc(-c3ccccc3)cc2)OC1OC | MIC | - | - | >32 µg/mL
CC(C)=CCC/C(C)=C\CCOC(Cn1ccnc1)c1ccc(Cl)cc1Cl | MIC | - | TIMM0144 | 20–40 µg/mL
Clc1ccc(/C(Cn2ccnc2)=N\OCc2ccccc2)cc1 | MIC | - | CA2 | 8 µg/mL
CC(=O)c1ccc2c(c1)N(C(=O)CN1C(=O)C=CC1=O)c1ccccc1S2 | MIC | - | NCIM no 300 | >50 µg/mL
Cc1ccc(C2CC(Cc3ccc4ccccc4c3)=Cc3[nH][nH]c(=O)c32)cc1 | MIC | agar diffusion | - | 100 µg/mL
CCCCOc1ccc(SCC#CCN2CCN(C)CC2)cc1 | EC50 | - | CNCM 1180-79 | <78 µg/mL
CN(Cc1cccc2ccccc12)/N=C\c1cccc2ccccc12 | MIC | - | - | >64 µg/mL
Fc1ccc(/C(Cn2ccnc2)=N/OCc2ccccc2)cc1 | MIC | - | 3M | 64 µg/mL
CC(C)CCOC[C@H]1CC[C@@](C)(C=O)[C@]1(C)C(=O)O | MIC | - | 2005E | 462 µM
Cc1c(C(=O)/C=C/c2ccc(Cl)cc2)nnn1-c1ccnc2c(C(F)(F)F)cccc12 | MIC | - | - | 12.5 µg/mL
C[C@H]1O[C@@H](OC[C@H]2CC[C@@](C)(C=O)[C@]2(C)C(=O)O)C[C@@H]2OC(C)(C)O[C@@H]21 | EC50 | - | 2005E | 162 µM
OC(Cn1cncn1)(Cn1cncn1)c1ccc(F)cc1F | MIC90 | - | 50 isolates | 40 µg/mL
N=C(N)c1ccc2nc(-c3ccc(-c4nc5ccc(C(=N)N)cc5[nH]4)[nH]3)[nH]c2c1 | MIC | - | Isolate CA2601 fluconazole-resistant | 0.78 µg/mL
Nc1cccc(-c2cn(CC(Oc3ccc(Cl)cc3)c3ccc(Cl)cc3Cl)nn2)c1 | MIC | broth dilution | ATCC90027 | >256 µg/mL
CCc1c(Cc2ccc(Cl)cc2)nc(SCCN2CCCC2)[nH]c1=O | MIC | - | ATCC 10231 | 25 µg/mL
C[C@@H](SC1COC(/C=C/C=C/c2ccc(C#N)cc2F)OC1)[C@](O)(Cn1cncn1)c1ccc(F)cc1F | MIC90 | - | 25 isolates fluconazole-susceptible | 0.125 µg/mL
CCCCCCCCCSc1cc(C(N)=S)ccn1 | MIC | - | 3a | 200 µg/mL
CN(Cc1cccc2ccccc12)/N=C\C=C\c1ccccc1 | MIC | - | - | >64 µg/mL
Cc1ccc(C2CC(Cc3ccc(CC(C)C)cc3)=Cc3[nH][nH]c(=O)c32)cc1 | MIC | agar diffusion | - | 25 µg/mL
CCCCCCCCSc1cc(C(N)=S)ccn1 | MFC | - | 42 | >200 µg/mL
CN(Cc1cccc2ccccc12)/N=C\c1ccc(Cl)cc1 | MIC | - | - | >64 µg/mL
CCCCOc1ccc(SCC#CCN2CCCCC2)cc1 | EC50 | - | CNCM 1180-79 | 87 µg/mL
C[C@@]1(C=O)CC[C@H](COC(=O)c2ccccc2)[C@@]1(C)C(=O)O | EC50 | - | 2005E | 32 µM
CN(Cc1cccc2ccccc12)/N=C\Cc1ccccc1 | MIC | - | - | >64 µg/mL
N#Cc1c(N)nc2c(c1-c1ccc(F)cc1)SC1=NC3=C(C(=O)CCC3)C(c3ccc(F)cc3)N12 | MIC | - | AUCC-1720 | 100 µg/mL
C[C@H]1[C@H](O)[C@@H](C)/C=C/C=C/C=C/C=C/C=C/C=C/C=C/[C@H](O[C@@H]2O[C@H](C)[C@@H](O)[C@H](N)[C@@H]2O)C[C@@H]2O[C@](O)(C[C@@H](O)C[C@@H](O)CC[C@H](O)[C@@H](O)C[C@@H](O)CC(=O)O[C@H]1C)C[C@H](O)[C@H]2C(=O)O | MIC | - | DARL82/003 (azole-resistant) | 0.5 µg/mL
CCCOc1ccc(SCC#CCCN2CCN(C)CC2)cc1 | EC50 | - | CNCM 1180-79 | 78 µg/mL
CC(=O)N1CCN(c2ccc(OC[C@@H]3CO[C@@](Cn4ccnc4)(c4ccc5c(c4)SCC(=O)N5C)O3)cc2)CC1 | MIC | - | - | 62.5 µg/mL
CCCCC/C=C/C=N\N(C)Cc1cccc2ccccc12 | MIC | - | - | >64 µg/mL
CCc1c(Cc2ccc(Cl)cc2)nc(SCCCN2C(=O)c3ccccc3C2=O)[nH]c1=O | MIC | - | ATCC 10231 | 100 µg/mL
Clc1ccc(/C(Cn2ccnc2)=N/OCc2ccccc2)c(Cl)c1 | MIC | - | CA2 | 16 µg/mL
COc1ccc(C2CC(Cc3ccc(CC(C)C)cc3)=Cc3[nH][nH]c(=O)c32)cc1 | MIC | agar diffusion | - | 200 µg/mL
Clc1ccc(/C(Cn2ccnc2)=N/OCc2ccccc2)cc1 | MIC | - | Y0109 | 32 µg/mL
Nc1[nH]c(=O)ncc1F | MIC90 | - | 50 isolates | 0.63 µg/mL
CC(C)CCCC(C)CCOC(Cn1ccnc1)c1ccc(Cl)cc1Cl | MIC | - | TIMM0144 | 20 µg/mL
COc1cc(/C=C/C(=O)c2nnn(-c3ccnc4c(C(F)(F)F)cccc34)c2C)c([N+](=O)[O-])cc1OC | MIC | - | - | 25 µg/mL
COC1OC(C)(c2ccc(-c3ccccc3)cc2)C(O)CC1N1CCN(C)CC1 | MIC | - | - | >32 µg/mL
CCCOc1ccc(SCC#CI)cc1 | EC50 | - | CNCM 1180-79 | <78 µg/mL
CCCn1c(-c2ccccc2)nc2cc([N+](=O)[O-])ccc21 | MIC | - | - | 25 µg/mL
C[C@H]1[C@H](O)[C@@H](C)/C=C/C=C/C=C/C=C/C=C/C=C/C=C/[C@H](O[C@@H]2O[C@H](C)[C@@H](O)[C@H](N)[C@@H]2O)C[C@@H]2O[C@](O)(C[C@@H](O)C[C@@H](O)CC[C@H](O)[C@@H](O)C[C@@H](O)CC(=O)O[C@H]1C)C[C@H](O)[C@H]2C(=O)O | MIC50 | - | 50 isolates | 0.05 µg/mL
c1ccc(CO/N=C(/Cn2ccnc2)c2ccccc2)cc1 | MIC | - | CA12 | 128 µg/mL
CCCn1c(-c2ccc(F)cc2)nc2cc(N)ccc21 | MIC | - | - | 12.5 µg/mL
Cc1c(Cc2ccc(Cl)cc2)nc(SCCN2CCCC2)[nH]c1=O | MIC | - | ATCC 10231 | 100 µg/mL

Repeating the final 7 entries:

compound	read-out	method	strain	result
COC1OC(C)(c2ccc(-c3ccccc3)cc2)C(O)CC1N1CCN(C)CC1	MIC	-	-	>32 µg/mL
CCCOc1ccc(SCC#CI)cc1	EC50	-	CNCM 1180-79	<78 µg/mL
CCCn1c(-c2ccccc2)nc2cc([N+](=O)[O-])ccc21	MIC	-	-	25 µg/mL
C[C@H]1[C@H](O)[C@@H](C)/C=C/C=C/C=C/C=C/C=C/C=C/C=C/[C@H](O[C@@H]2O[C@H](C)[C@@H](O)[C@H](N)[C@@H]2O)C[C@@H]2O[C@](O)(C[C@@H](O)C[C@@H](O)CC[C@H](O)[C@@H](O)C[C@@H](O)CC(=O)O[C@H]1C)C[C@H](O)[C@H]2C(=O)O	MIC50	-	50 isolates	0.05 µg/mL
c1ccc(CO/N=C(/Cn2ccnc2)c2ccccc2)cc1	MIC	-	CA12	128 µg/mL
CCCn1c(-c2ccc(F)cc2)nc2cc(N)ccc21	MIC	-	-	12.5 µg/mL
Cc1c(Cc2ccc(Cl)cc2)nc(SCCN2CCCC2)[nH]c1=O	MIC	-	ATCC 10231	100 µg/mL